The test has as its target T1, 417N/484K/501Y RBD mutant (SARS-CoV-2, Wuhan-Hu-1 RBD backbone …, 417N | 484K | 501Y).
T1 construct: also called RBD KEN
As to the kind of experiment: BLI. The settings on record: both partners purified.

B1: V029 (antibody, V domains shown)
VH: QVQLVESGGGVVQPGRSLRLSCAASGFTFNSYGMHWVRQAPGKGLEWVAVISYDGTNKYYADSVKGRFTISRDNSKNTLYLQMNSLRAEDTAVYYCAKDSEDCSSTTCYQDYWGQGTLVTVSS
VL: [about 100 residues cut from this listing]FGPGTKVDIK
notes: IgG; donor BRA14; source: recombinant monoclonal IgG, produced and purified as previously described
Regarding B1, the Kd (usually the free concentration of one partner at which half of the binding sites on the other are occupied at equilibrium, for simple one-to-one binding) was determined as 19.1 nM.

The values are drawn from PMC9270183 (The Journal of Experimental Medicine, 2022).
